In patent US20240168030A1, “DIRECT FLUORESCENT GLYCAN LABELING” (BIO-TECHNE CORPORATION, priority 2019, published 2024):

Experiment: Selection of labeling enzyme and substrate optimization on released RBD glycans

| Substance | Signal among sialyltransferases ST6Gal1, ST3Gal3, ST3Gal4 and ST3Gal6 (CMP-Cy5-Sialic acid, FIG. 26A) | Donor input at which stronger signal intensities were observed (labeling by ST6Gal1 or ST3Gal6, 2 hours at 37° C., FIG. 26C) |
| --- | --- | --- |
| α-2,6-sialyltransferase 1 | stronger signals |  |
| cytidine monophosphate activated Cy5-conjugated sialic acid |  | around 0.4 nmol |
